Pooled drug test results. Numbers come from NIAID ChemDB, via PubChem.

Shared fields: whole-cell or culture tests; species: Mycobacterium avium

ECn is the concentration giving n% inhibition of infection, replication or growth. Rows are shuffled and stem from different studies. An empty or dashed field is not shown. MIC50, MIC90 and the like: level of inhibition, or share of isolates inhibited.

{"SMILES": "NC(=S)c1cc(SCc2ccc([N+](=O)[O-])cc2)ccn1", "strain or isolate": "CNCTC MY330/88", "measure": "MIC", "value": "3.98 µM"}
{"SMILES": "Clc1ccc(C(Cn2ccnc2)NC/C=C/c2ccccc2)c(Cl)c1", "strain or isolate": "CIP103317", "measure": "MIC", "value": ">16 µg/mL"}
{"SMILES": "N/C(=N\\NC(CC(=O)c1cccc(Cl)c1)c1ccncc1)c1ccccn1", "strain or isolate": "17 strains", "measure": "MIC50", "value": "16 µg/mL"}
{"SMILES": "CCCCCOc1ccc(NC(=O)OCC[NH+]2CCCC2)cc1", "strain or isolate": "MY330/88", "measure": "MIC", "value": "32 µM"}
{"SMILES": "O=c1[nH]c(=O)n(COCCO)cc1I", "strain or isolate": "ATCC 25291", "measure": "EC50", "value": ">100 µg/mL"}
{"SMILES": "NC(=S)c1cc(SCc2ccc(Cl)c(Cl)c2)ccn1", "strain or isolate": "CNCTC MY330/88", "measure": "MIC", "value": "3.98 µM"}
{"SMILES": "N#Cc1cc(SCC(=O)NN)ccn1", "strain or isolate": "330/88", "measure": "MIC", "value": "250 µM"}
{"SMILES": "CCCCOc1ccc(NC(=S)Nc2ccc(OCCCC)cc2)cc1", "strain or isolate": "724", "measure": "MIC", "value": ">20 µg/mL"}
{"SMILES": "CCCCCCCCc1ccc(NC(=O)c2cc(Br)ccc2O)cc1", "strain or isolate": "MY330/88", "measure": "MIC", "value": "8 µM"}
{"SMILES": "N/C(COc1ccccc1Cl)=N/NC(=O)c1ccncc1", "strain or isolate": "ATCC 19421", "measure": "MIC", "value": ">100 µg/mL"}
{"SMILES": "O=C1NC(Nc2ccc(Cl)cc2)=N/C1=C\\c1ccc(Cl)cc1Cl", "measure": "MIC", "value": ">12.5 µg/mL"}
{"SMILES": "N/C(=N\\NC(CC(=O)c1cccc(Cl)c1)c1cccnc1)c1ccccn1", "strain or isolate": "17 strains", "measure": "MIC90", "value": "160 µg/mL"}
{"SMILES": "CCCOc1cccc(NC(=O)OCCN2CCOCC2)c1", "strain or isolate": "MY330/88", "measure": "MIC", "value": "500 µM"}
{"SMILES": "O=C1NC(Nc2cccc(Cl)c2)=N/C1=C\\c1ccccc1Cl", "measure": "EC50", "value": "<12.5 µg/mL"}
{"SMILES": "CC[C@H]1OC(=O)[C@H](C)[C@@H](O[C@H]2C[C@@](C)(OC)[C@@H](O)[C@H](C)O2)[C@H](C)[C@@H](O[C@@H]2O[C@H](C)C[C@H](N(C)C)[C@H]2O)[C@](C)(O)C[C@@H](C)/C(=N\\OCOCCOC)[C@H](C)[C@@H](O)[C@]1(C)O", "strain or isolate": "15 isolates (HIV+)", "measure": "EC50", "value": "7.5 µg/mL"}
{"SMILES": "O=C1NC(Nc2ccc(Cl)cc2)=N/C1=C\\c1ccccc1Cl", "measure": "MIC", "value": ">12.5 µg/mL"}
{"SMILES": "c1ccc(-c2ccc(CNC(Cn3ccnc3)c3ccccc3)cc2)cc1", "strain or isolate": "CIP103317", "measure": "MIC", "value": "8 µg/mL"}
{"SMILES": "CCCCSc1ccc(NC(=S)Nc2ccc(SCCCC)cc2)cc1", "strain or isolate": "724", "measure": "MIC", "value": "5 µg/mL"}
{"SMILES": "Clc1ccc(-n2nnnc2SSc2nnnn2-c2ccc(Cl)cc2)cc1", "strain or isolate": "80/72", "measure": "MIC", "value": "500 µM"}
{"SMILES": "O=c1[nH]c(=O)n(COC(CO)CO)cc1I", "strain or isolate": "ATCC 25291", "measure": "EC50", "value": ">100 µg/mL"}
{"SMILES": "CCCCCCCCOc1cccc(NC(=O)OCCN2CCOCC2)c1", "strain or isolate": "MY330/88", "measure": "MIC", "value": "32 µM"}
{"SMILES": "N#Cc1ccnc(N2CCCCC2)c1", "strain or isolate": "330/88", "measure": "MIC", "value": "500 µM"}
{"SMILES": "Cc1ccc(-n2nnnc2SSc2nnnn2-c2ccc(C)c(C)c2)cc1C", "strain or isolate": "80/72", "measure": "MIC", "value": "1000 µM"}
{"SMILES": "N#CCCSc1cc(C#N)ccn1", "strain or isolate": "330/88", "measure": "MIC", "value": "1000 µM"}
{"SMILES": "CCCCCc1ccc(NC(=O)c2cc(Cl)ccc2O)cc1", "strain or isolate": "MY330/88", "measure": "MIC", "value": "16 µM"}
{"SMILES": "C/C=C\\C#CC#C/C=C/C(=O)OC", "measure": "MIC", "value": "50 µg/mL"}
{"SMILES": "CCCc1ccc(NC(=O)c2cc(Br)ccc2O)cc1", "strain or isolate": "MY330/88", "measure": "MIC", "value": "16 µM"}
{"SMILES": "OCNC(=S)c1cnccn1", "strain or isolate": "ATCC 25291", "measure": "MIC", "value": "50 µg/mL"}
{"SMILES": "N#Cc1cc(SCc2ccc(F)cc2)ccn1", "strain or isolate": "CNCTC MY330/88", "measure": "MIC", "value": "30.9 µM"}
{"SMILES": "Cc1ccc(C(=O)CC(N/N=C(\\N)c2ccccn2)c2cccnc2)cc1", "strain or isolate": "17 strains", "measure": "MIC50", "value": "160 µg/mL"}
{"SMILES": "O=C1NC(=Nc2ccc(Cl)cc2Cl)N/C1=C\\c1ccc(Cl)cc1Cl", "measure": "MIC", "value": ">12.5 µg/mL"}
{"SMILES": "O=c1[nH]c(=O)n(COCCO)cc1Cl", "strain or isolate": "ATCC 25291", "measure": "EC50", "value": ">100 µg/mL"}
{"SMILES": "O=C(N/N=C(\\COc1ccccc1)N=Cc1cccnc1)c1ccncc1", "strain or isolate": "ATCC 19421", "measure": "MIC", "value": ">100 µg/mL"}
{"SMILES": "CCCCCCCCCCC#Cc1cn(COC(CO)CO)c(=O)[nH]c1=O", "strain or isolate": "ATCC 25291", "measure": "EC50", "value": ">50 µg/mL"}
{"SMILES": "CCCCOc1cccc(NC(=O)OCCN(C)C)c1", "strain or isolate": "MY330/88", "measure": "MIC", "value": "125 µM"}
{"SMILES": "CCCCc1ccc(NC(=O)c2cc(Br)ccc2O)cc1", "strain or isolate": "MY330/88", "measure": "MIC", "value": "16 µM"}
{"SMILES": "O=c1[nH]c(=O)n(COCCO)cc1Br", "strain or isolate": "ATCC 25291", "measure": "EC50", "value": ">100 µg/mL"}
{"SMILES": "CN(C)c1ccc(-n2c(=O)oc3ccc(Cl)cc3c2=O)cc1", "strain or isolate": "CNCTC MY330/88", "measure": "MIC", "value": "62 µM"}
{"SMILES": "N/C(=N\\NC(CC(=O)c1ccccc1)c1ccccn1)c1ccccn1", "strain or isolate": "17 strains", "measure": "MIC50", "value": "32 µg/mL"}
{"SMILES": "CC[C@H]1OC(=O)[C@H](C)[C@@H](O[C@H]2C[C@@](C)(OC)[C@@H](O)[C@H](C)O2)[C@H](C)[C@@H](O[C@@H]2O[C@H](C)C[C@H](N(C)C)[C@H]2O)[C@](C)(OC)C[C@@H](C)C(=O)[C@H](C)[C@@H](O)[C@]1(C)O", "strain or isolate": "1435", "measure": "MBC", "value": "32 µg/mL"}
{"SMILES": "CCCCc1ccc(NC(=O)c2cc(Cl)ccc2O)cc1", "strain or isolate": "MY330/88", "measure": "MIC", "value": "8 µM"}
{"SMILES": "O=c1oc2ccc(F)cc2c(=O)n1-c1cccc(Cl)c1", "strain or isolate": "CNCTC MY330/88", "measure": "MIC", "value": "16 µM"}
{"SMILES": "NC(=S)c1cnccn1", "strain or isolate": "ATCC 25291", "measure": "MIC", "value": ">200 µg/mL"}
{"SMILES": "Cc1ccccc1OC/C(N)=N\\NC(=O)c1ccncc1", "strain or isolate": "ATCC 19421", "measure": "MIC", "value": ">100 µg/mL"}
{"SMILES": "N/C(=N\\NC(CC(=O)c1cccc(Br)c1)c1ccccn1)c1ccccn1", "strain or isolate": "17 strains", "measure": "MIC90", "value": "80 µg/mL"}
{"SMILES": "C/C=C(/C)C(=O)OC/C=C\\C#CC#C/C=C/C(=O)OC", "measure": "MIC", "value": "50 µg/mL"}
{"SMILES": "C(=C\\c1ccccc1)/CNC(Cn1ccnc1)c1ccccc1", "strain or isolate": "CIP103317", "measure": "MIC", "value": ">16 µg/mL"}
{"SMILES": "C/C=C\\C#CC#C/C=C\\C(=O)OC", "measure": "MIC", "value": "25 µg/mL"}
{"SMILES": "Cc1c(CN2CCN(C)CC2)cc(-c2ccc(Cl)cc2)n1-c1ccc(Cl)cc1", "strain or isolate": "103317", "measure": "MIC", "value": "0.4 µg/mL"}
{"SMILES": "N/C(=N\\NC(CC(=O)c1ccccc1)c1cccnc1)c1ccccn1", "strain or isolate": "17 strains", "measure": "MIC50", "value": "160 µg/mL"}
{"SMILES": "CC(C)(C)c1ccc(NC(=S)Nc2ccc(C(C)(C)C)cc2)cc1", "strain or isolate": "724", "measure": "MIC", "value": ">20 µg/mL"}
{"SMILES": "Cc1ccc(C(=O)CC(N/N=C(\\N)c2ccccn2)c2ccccn2)cc1", "strain or isolate": "17 strains", "measure": "MIC90", "value": "160 µg/mL"}
{"SMILES": "N/C(COc1ccc([N+](=O)[O-])cc1)=N/NC(=O)c1ccncc1", "strain or isolate": "ATCC 19421", "measure": "MIC", "value": ">100 µg/mL"}
{"SMILES": "O=C(O)c1cn(C2CC2)c2cc(N3CCN(c4ccccc4)CC3)c(F)cc2c1=O", "measure": "MIC90", "value": ">16 µg/mL"}
{"SMILES": "N#CCCSc1ccnc(C#N)c1", "strain or isolate": "330/88", "measure": "MIC", "value": "500 µM"}
{"SMILES": "NC(=S)c1cc(SCc2ccc(Br)cc2)ccn1", "strain or isolate": "CNCTC MY330/88", "measure": "MIC", "value": "7.94 µM"}
{"SMILES": "N#Cc1ccnc(SCC(O)CO)c1", "strain or isolate": "330/88", "measure": "MIC", "value": "250 µM"}
{"SMILES": "c1ccc(-n2nnnc2SSc2nnnn2-c2ccccc2)cc1", "strain or isolate": "80/72", "measure": "MIC", "value": "1000 µM"}
{"SMILES": "CCCCCCc1ccc(NC(=O)c2cc(Br)ccc2O)cc1", "strain or isolate": "MY330/88", "measure": "MIC", "value": "16 µM"}
{"SMILES": "CN1CCN(c2cc3c(cc2F)c(=O)c(C(=O)O)cn3C2CC2)CC1", "measure": "MIC90", "value": "16 µg/mL"}
{"SMILES": "Cc1cccc(C(=O)CC(N/N=C(\\N)c2ccccn2)c2ccccn2)c1", "strain or isolate": "17 strains", "measure": "MIC90", "value": "160 µg/mL"}
{"SMILES": "N/C(COc1ccc(Cl)cc1)=N/NC(=O)c1ccncc1", "strain or isolate": "ATCC 19421", "measure": "MIC", "value": ">100 µg/mL"}
{"SMILES": "C[C@@H]([C@H](NC(=O)[C@H](Cc1ccc2ccccc2c1)NC(=O)N[C@@H](Cc1c[nH]c2ccccc12)C(=O)NCC(C)(C)C)C(=O)NC[C@H]1C[C@@H](O)[C@H](n2ccc(=O)[nH]c2=O)O1)N(C)C(=O)CN", "strain or isolate": "CA6", "read by": "resazurin / fluorescence", "measure": "MIC", "value": "0.8 µM"}
{"SMILES": "O=c1[nH]c(=O)n(COCCO)cc1F", "strain or isolate": "ATCC 25291", "measure": "EC50", "value": ">100 µg/mL"}
{"SMILES": "Fc1ccc(C(Cn2ccnc2)NC/C=C/c2ccccc2)cc1", "strain or isolate": "CIP103317", "measure": "MIC", "value": ">16 µg/mL"}
{"SMILES": "C[C@H]1COc2c(N3CCN(C)CC3)c(F)cc3c(=O)c(C(=O)O)cn1c23", "strain or isolate": "36-1", "measure": "MIC", "value": "1 µg/mL"}
{"SMILES": "O=C1NC(=NCc2ccccc2)N/C1=C\\c1ccc(Cl)cc1", "measure": "EC50", "value": ">12.5 µg/mL"}
{"SMILES": "O=c1ccn(COCCO)c(=O)[nH]1", "strain or isolate": "ATCC 25291", "measure": "EC50", "value": ">100 µg/mL"}
{"SMILES": "COc1cccc(NC(=O)OCCN2CCCCC2)c1", "strain or isolate": "MY330/88", "measure": "MIC", "value": ">1000 µM"}
{"SMILES": "CCCOc1ccc(NC(=S)Nc2ccc(OCCC)cc2)cc1", "strain or isolate": "724", "measure": "MIC", "value": ">20 µg/mL"}
{"SMILES": "N#Cc1cc(SCc2ccc(F)c(F)c2)ccn1", "strain or isolate": "CNCTC MY330/88", "measure": "MIC", "value": "15.85 µM"}
{"SMILES": "c1ccc(C(Cn2ccnc2)NCc2cccc3ccccc23)cc1", "strain or isolate": "CIP103317", "measure": "MIC", "value": "8 µg/mL"}
{"SMILES": "CC(=O)Nc1ccc(OC/C(N)=N\\NC(=O)c2ccncc2)cc1", "strain or isolate": "ATCC 19421", "measure": "MIC", "value": ">100 µg/mL"}
{"SMILES": "O=c1oc2cc(Cl)ccc2c(=O)n1-c1ccc(F)cc1", "strain or isolate": "CNCTC MY330/88", "measure": "MIC", "value": "16 µM"}
{"SMILES": "N#CCCSc1cc(C(N)=S)ccn1", "strain or isolate": "330/88", "measure": "MIC", "value": "125 µM"}
{"SMILES": "Cc1c(CN2CCSCC2)cc(-c2ccccc2)n1-c1ccc(F)cc1", "strain or isolate": "103317", "measure": "MIC", "value": "2 µg/mL"}
{"SMILES": "CC[C@H]1OC(=O)[C@H](C)[C@@H](O[C@H]2C[C@@](C)(OC)[C@@H](O)[C@H](C)O2)[C@H](C)[C@@H](O[C@@H]2O[C@H](C)C[C@H](N(C)C)[C@H]2O)[C@](C)(O)C[C@](C)(F)C(=O)[C@H](C)[C@@H](O)[C@]1(C)O", "strain or isolate": "15 isolates (HIV+)", "measure": "EC50", "value": "50 µg/mL"}
{"SMILES": "CCCCCCCCCOc1ccc(NC(=O)OCCN2CCCCC2)cc1", "strain or isolate": "MY330/88", "measure": "MIC", "value": "8 µM"}
{"SMILES": "CCCCc1ccc(NC(=O)c2ccc(Cl)cc2O)cc1", "strain or isolate": "MY330/88", "measure": "MIC", "value": "8 µM"}
{"SMILES": "Clc1ccc(C(Cn2ccnc2)NCc2ccc(-c3ccccc3)cc2)c(Cl)c1", "strain or isolate": "CIP103317", "measure": "MIC", "value": "8 µg/mL"}

Repeating the final 7 entries:

SMILES	strain or isolate	read by	measure	value
O=c1oc2cc(Cl)ccc2c(=O)n1-c1ccc(F)cc1	CNCTC MY330/88		MIC	16 µM
N#CCCSc1cc(C(N)=S)ccn1	330/88		MIC	125 µM
Cc1c(CN2CCSCC2)cc(-c2ccccc2)n1-c1ccc(F)cc1	103317		MIC	2 µg/mL
CC[C@H]1OC(=O)[C@H](C)[C@@H](O[C@H]2C[C@@](C)(OC)[C@@H](O)[C@H](C)O2)[C@H](C)[C@@H](O[C@@H]2O[C@H](C)C[C@H](N(C)C)[C@H]2O)[C@](C)(O)C[C@](C)(F)C(=O)[C@H](C)[C@@H](O)[C@]1(C)O	15 isolates (HIV+)		EC50	50 µg/mL
CCCCCCCCCOc1ccc(NC(=O)OCCN2CCCCC2)cc1	MY330/88		MIC	8 µM
CCCCc1ccc(NC(=O)c2ccc(Cl)cc2O)cc1	MY330/88		MIC	8 µM
Clc1ccc(C(Cn2ccnc2)NCc2ccc(-c3ccccc3)cc2)c(Cl)c1	CIP103317		MIC	8 µg/mL